In ChEMBL document CHEMBL5528015, “Structure-based design of SARS-CoV-2 papain-like protease inhibitors” (Eur J Med Chem, 2024):

Test system: SARS-CoV-2
Assay: microbe, parasite or virus in culture
Details: Severe acute respiratory syndrome coronavirus 2, Caco-2, 24 h

Cc1ccc(N)cc1C(=O)N[C@H](C)c1cccc2ccccc12
EC50: 25.5 µM
